# From PMC8514532, “Secondary-structure switch regulates the substrate binding of a YopJ family acetyltransferase” (2021)
# Biological target: PopP2-CFP, full length (Ralstonia solanacearum) (UniProt Q8Y125)
# Experiment: FRET or BRET
substance,measurement,value
C-terminal portion of RRS1-R (1190-1378) fused to YFPv (domain or fragment),FRET efficiency E,10.7%
same,mean CFP donor lifetime with acceptor,2.54 ns
same,"Δt, donor lifetime without minus with acceptor",0.302 ns
